Measured values from several laboratories, pooled; numbers as filed in NIAID ChemDB.

All rows: whole-cell or culture tests; agent: HIV-1; read by: MTT; measure: EC50

An empty or dashed field is not shown. ECn: concentration that inhibits the pathogen or its effect by n%. Lines come from different laboratories, so protocols vary.

SMILES,strain or isolate,cell line,changes,result
Cc1ccc2sn(/N=C/c3ccc([N+](=O)[O-])cc3[N+](=O)[O-])c(=O)c2c1,,MT-4,EFV-resistant (K103 V179D P225H),>100 µM
COC(=O)c1ccc(CN2CCC(Nc3nc(Oc4c(C)cc(C#N)cc4C)c4ccsc4n3)CC2)cc1,IIIB,MT-4,NNRTI-resistant (RT L100I),0.134 µM
Cc1nc2c(c(C)c(C)n2Cc2cccc(C#N)c2)c(-c2ccc(Cl)cc2)c1[C@H](OC(C)(C)C)C(=O)O,IIIB,MT-4,,0.02694 µM
Cc1cc(-c2ccc(C#N)cc2)cc(C)c1Oc1ccnc(S(=O)(=O)C(C)C(=O)Nc2ccc(Cl)cc2)n1,IIIB,MT-4,E138K,0.114 µM
C=CCOCn1c(Cc2c(F)c(F)cc(F)c2F)c(CC)c(=O)[nH]c1=O,EFV-resistant (K103R V179D P225H),MT-4,,>100 µM
Cc1ccc(C(O)(c2c(C)c(=O)[nH]c(=O)n2COCc2ccccc2)C(C)C)cc1,IIIB,MT-4,,>155 µM
C=CCOCn1c(Cc2cc(C(F)(F)F)cc(C(F)(F)F)c2)c(CC)c(=O)[nH]c1=O,N119 (Y181C),MT-4,,>100 µM
CCOCn1c(Cc2ccccc2)c(C(C)C)c(=O)[nH]c1=O,IIIB,MT-4,Efavirenz-resistant (K103R + V179D + P225H),>100 µM
Cc1ccc2sn(/N=C/c3ccc(O)c(O)c3)c(=O)c2c1,,MT-4,K103N + Y181C,>49 µM
Cc1ccnc2c1NC(=O)c1cccnc1N2C1CC1,,MT-4,L100I,2.233 µM
CC(C)c1c(C(C)c2ccc(F)cc2)n(COCc2ccccc2)c(=O)[nH]c1=O,IIIB,MT-4,K103N,>33.73 µM
O=c1c2ccccc2sn1/N=C/c1ccc(O)cc1O,,MT-4,Y181C,>21 µM
Cc1ccc(CN2CCC(Nc3nc(Oc4c(C)cc(/C=C/C#N)cc4C)c4sccc4n3)CC2)cc1,RES056,MT-4,,0.146 µM
Cc1ccccc1C(C)c1c(C)c(=O)[nH]c(=O)n1COCc1ccccc1,IIIB,MT-4,K103N,84.13 µM
Cc1cc(C#CCCO)cc(C)c1Oc1ccnc(Nc2ccc(C#N)cc2)n1,IIIB,MT-4,L100I,0.258 µM
Cc1cc(/C=C/C#N)cc(C)c1Oc1ccnc(S(=O)(=O)CC(=O)Nc2ccc(Cl)cc2)n1,RES056,MT-4,,0.228 µM
Cc1cc(C)cc(S(=O)(=O)c2c(C(=O)NS(=O)(=O)C(F)(F)F)[nH]c3ccc(Cl)cc23)c1,,MT-4,Y188L,>253 µM
Cc1cc(/C=C/C#N)cc(C)c1Oc1nc(NC2CCN(Cc3ccc(Cl)cc3)CC2)nc2ccsc12,IIIB,MT-4,NNRTI-resistant (RT L100I),0.0428 µM
Cc1ccc2sn(/N=C/c3cccc(F)c3)c(=O)c2c1,,MT-4,EFV-resistant (K103 V179D P225H),>30 µM
CCc1c(Cc2cc(C)cc(C)c2)n(COCC#Cc2ccccc2)c(=O)[nH]c1=O,IIIB,MT-4,EFV-resistant (K103R V179D P225H),12 µM
Cc1cc(-c2ccc(C#N)cc2)cc(C)c1Oc1ccnc(S(=O)(=O)CC(=O)Nc2ccc(F)cc2)n1,IIIB,MT-4,,0.023 µM
Cc1nc2c(c(C)c(C)n2Cc2ccc(F)nc2)c(-c2ccc(Cl)cc2)c1[C@H](OC(C)(C)C)C(=O)O,IIIB,MT-4,,0.00765 µM
C#CCOCn1c(Cc2cccc(C(F)(F)F)c2)c(C(C)C)c(=O)[nH]c1=O,EFV-resistant (K103R V179D P225H),MT-4,,>46 µM
COc1cc(Cc2[nH]c(=S)[nH]c(=O)c2C(C)C)cc(OC)c1,IIIB,MT-4,Efavirenz-resistant (K103R + V179D + P225H),>100 µM
Cc1cc(C)cc(S(=O)(=O)c2c(C(=O)NS(=O)(=O)c3ccc(F)cc3F)[nH]c3ccc(Cl)cc23)c1,,MT-4,L100I,2.17 µM
CCc1c(Cc2cc(C)cc(C)c2)n(COCC#Cc2cccc(O[Si](c3ccccc3)(c3ccccc3)C(C)(C)C)c2)c(=O)[nH]c1=O,IIIB,MT-4,K103N + Y181C,6 µM
CCOCn1c(Cc2cccc(F)c2)c(C(C)C)c(=O)[nH]c1=O,N119 (Y181C),MT-4,,14 µM
Cc1cc(C)cc(Cc2c(C(C)C)c(=O)[nH]c(=O)n2COCCOc2ccccc2)c1,A17,MT-4,K103N + Y181C,13.3 µM
Cc1cc(C)cc(S(=O)(=O)c2c(C(=O)NS(=O)(=O)c3ccccc3)[nH]c3ccc(Cl)cc23)c1,,MT-4,Y181C,6.71 µM
Cc1cc(-c2ccc(C#N)cc2)cc(C)c1Oc1ccnc(S(=O)(=O)C(C)C(=O)Nc2ccc(C#N)cc2)n1,IIIB,MT-4,L100I,0.106 µM
COc1cc(/C=N/n2sc3ccccc3c2=O)ccc1O,,MT-4,,>15 µM
Cc1cccc(C(C)(O)c2c(C)c(=O)[nH]c(=O)n2COCc2ccccc2)c1,IIIB,MT-4,,37.48 µM
Cc1cc(/C=C/C#N)cc(C)c1Oc1nc(NC2CCN(Cc3cccc(Cl)c3)CC2)nc2ccsc12,IIIB,MT-4,NNRTI-resistant (RT K103N),0.0298 µM
N#Cc1ccc(Nc2nc(Oc3c(F)cc(-c4ccc(C#N)cc4)cc3F)c3sccc3n2)cc1,IIIB,MT-2,Y181C,0.1206 µM
CCc1c(Cc2ccccc2C)n(COCC#Cc2ccc(NC(=O)C(F)(F)F)cc2)c(=O)[nH]c1=O,IIIB,MT-4,Y181C,>45 µM
Cc1cc(/C=C/C#N)cc(C)c1Oc1nc(NC2CCN(Cc3ccccc3Cl)CC2)nc2ccsc12,IIIB,MT-4,NNRTI-resistant (RT K103N),0.0291 µM
CCOCn1c(Cc2cccc(C(F)(F)F)c2)c(C(C)C)c(=O)[nH]c1=O,EFV-resistant (K103R V179D P225H),MT-4,,>54 µM
Cc1nc2c(c(C)c(C)n2Cc2nccs2)c(-c2ccc(Cl)cc2)c1[C@H](OC(C)(C)C)C(=O)O,IIIB,MT-4,,<0.683 µM
Cc1cc(C#N)cc(C)c1Oc1ccnc(S(=O)(=O)CC(=O)Nc2ccc(C#N)cc2)n1,IIIB,MT-4,,0.002 µM
Cc1ccc2sn(/N=C/c3cccc(O)c3)c(=O)c2c1,,MT-4,,>16 µM
CC(C)c1c(Cc2ccccc2)n(COCCOc2ccccc2)c(=O)[nH]c1=O,IIIB,MT-4,Efavirenz-resistant (K103R + V179D + P225H),18.5 µM
Cc1nc2c(c(C)c(C)n2CC(=O)N(C)C)c(-c2ccc(Cl)cc2)c1[C@H](OC(C)(C)C)C(=O)O,IIIB,MT-4,,0.0391 µM
Cc1ccnc2c1NC(=O)c1cccnc1N2C1CC1,RES056,MT-4,K103N,>15 µM
Cc1ccc2sn(/N=C/c3cccc(Cl)c3)c(=O)c2c1,,MT-4,,>59 µM
C=C(c1cc(OC)cc(OC)c1)c1c(C)c(=O)[nH]c(=O)n1COCc1ccccc1,IIIB,MT-4,E138K,20.28 µM
Cc1ccc2sn(/N=C/c3ccccc3F)c(=O)c2c1,,MT-4,EFV-resistant (K103 V179D P225H),>18 µM
Cc1cc(C#N)cc(C)c1Oc1nc(Nc2ccc(C#N)cc2)nc(N)c1Br,RES056,MT-4,,0.034 µM
COc1ccc(C(C)c2c(C)c(=O)[nH]c(=O)n2COCc2ccccc2)cc1OC,IIIB,MT-4,,>186 µM
Cc1nc2c(c(C)c(C)n2CCO)c(-c2ccc(Cl)cc2)c1C(OC(C)(C)C)C(=O)O,IIIB,MT-4,,0.0191 µM
CCc1c(Cc2ccccc2C)n(COCC#CC2c3ccccc3-c3ccccc32)c(=O)[nH]c1=O,IIIB,MT-4,Y181C,>50 µM
Cc1cc(C)cc(S(=O)(=O)c2c(C(=O)NS(=O)(=O)c3ccc(F)cc3)[nH]c3ccc(Cl)cc23)c1,,MT-4,E138K,4.04 µM
Cc1cc(/C=C/C#N)cc(C)c1Oc1nc(NC2CCN(Cc3cccc(C#N)c3)CC2)nc2ccsc12,IIIB,MT-4,NNRTI-resistant (RT F227L V106A),0.0263 µM
Cc1cc(-c2ccc(C#N)cc2)cc(Cl)c1Oc1nc(Nc2ccc(C#N)cc2)nc2ccsc12,IIIB,MT-4,,0.0345 µM
CCc1c(Cc2cc(C)cc(C)c2)n(COCC#Cc2cccc(C=O)c2)c(=O)[nH]c1=O,IIIB,MT-4,K103N + Y181C,6.4 µM
O=c1c2ccccc2sn1/N=C/c1ccccc1O,,MT-4,,>18 µM
CCc1c(Cc2cc(C)cc(C)c2)n(COCC#Cc2cccc(CO[Si](c3ccccc3)(c3ccccc3)C(C)(C)C)c2)c(=O)[nH]c1=O,IIIB,MT-4,EFV-resistant (K103R V179D P225H),>100 µM
Cc1c(C(C)(O)c2ccc(Cl)cc2)n(COCc2ccccc2)c(=O)[nH]c1=O,IIIB,MT-4,,>89.07 µM
CCOCn1c(Cc2cc(F)ccc2F)c(CC)c(=O)[nH]c1=O,A17,MT-4,K103N + Y181C,50 µM
Cc1nc2c(c(C)c(C)n2Cc2ccccn2)c(-c2ccc(Cl)cc2)c1C(OC(C)(C)C)C(=O)O,IIIB,MT-4,,0.144 µM
N#Cc1ccc(Nc2nc(Oc3ccc(-c4ccc(C#N)cc4)c(F)c3F)c3sccc3n2)cc1,RES056,MT-4,,>2.04 µM
CCCS(=O)(=O)NC(=O)c1[nH]c2ccc(Cl)cc2c1S(=O)(=O)c1cc(C)cc(C)c1,,MT-4,Y181C,5.51 µM
CCc1c(Cc2cc(C)cc(C)c2)n(COCC#CC#CCO)c(=O)[nH]c1=O,IIIB,MT-4,Y181C,0.8 µM

The first 8 rows once more:

Cc1ccc2sn(/N=C/c3ccc([N+](=O)[O-])cc3[N+](=O)[O-])c(=O)c2c1 ; cell line: MT-4 ; changes: EFV-resistant (K103 V179D P225H) ; result: >100 µM
COC(=O)c1ccc(CN2CCC(Nc3nc(Oc4c(C)cc(C#N)cc4C)c4ccsc4n3)CC2)cc1 ; strain or isolate: IIIB ; cell line: MT-4 ; changes: NNRTI-resistant (RT L100I) ; result: 0.134 µM
Cc1nc2c(c(C)c(C)n2Cc2cccc(C#N)c2)c(-c2ccc(Cl)cc2)c1[C@H](OC(C)(C)C)C(=O)O ; strain or isolate: IIIB ; cell line: MT-4 ; result: 0.02694 µM
Cc1cc(-c2ccc(C#N)cc2)cc(C)c1Oc1ccnc(S(=O)(=O)C(C)C(=O)Nc2ccc(Cl)cc2)n1 ; strain or isolate: IIIB ; cell line: MT-4 ; changes: E138K ; result: 0.114 µM
C=CCOCn1c(Cc2c(F)c(F)cc(F)c2F)c(CC)c(=O)[nH]c1=O ; strain or isolate: EFV-resistant (K103R V179D P225H) ; cell line: MT-4 ; result: >100 µM
Cc1ccc(C(O)(c2c(C)c(=O)[nH]c(=O)n2COCc2ccccc2)C(C)C)cc1 ; strain or isolate: IIIB ; cell line: MT-4 ; result: >155 µM
C=CCOCn1c(Cc2cc(C(F)(F)F)cc(C(F)(F)F)c2)c(CC)c(=O)[nH]c1=O ; strain or isolate: N119 (Y181C) ; cell line: MT-4 ; result: >100 µM
CCOCn1c(Cc2ccccc2)c(C(C)C)c(=O)[nH]c1=O ; strain or isolate: IIIB ; cell line: MT-4 ; changes: Efavirenz-resistant (K103R + V179D + P225H) ; result: >100 µM